A mixed list of measured activities; the numbers were collected in NIAID ChemDB.

Shared fields: tests on isolated targets; species: HIV-1; target: Reverse transcriptase; read by: nucleotide incorporation / radiometric; measure: IC50

Neighbouring rows are from separate reports. ICn: concentration for n% inhibition. Two numbers with a dash give a range or band.

CCN1c2ncc(CCOc3ccc(NC(=O)CC(C)(C)C(=O)O)cc3C)cc2C(=O)N(C)c2cccnc21 ; strain: IIIB ; changes: RT-K103N Y181C ; result: >0.1 µM
Nc1nc2c(ncn2[C@H]2CC[C@@H](COP(=O)(O)OP(=O)(O)OP(=O)(O)O)O2)c(=O)[nH]1 ; changes: RT-A62V ; result: 0.029 µM
CCN1c2ncc(CCOc3ccc(C(=O)NCc4cc[n+]([O-])cc4)cc3C)cc2C(=O)N(C)c2cccnc21 ; strain: IIIB ; result: <0.05 µM
Cc1cc(C)cc(S(=O)(=O)c2c(C(=O)NCCO)[nH]c3ccc(Cl)cc23)c1 ; changes: RT-V179D ; result: >40 µM
CCN1c2ncc(CCOc3cccc4c3CNC(=O)N4C)cc2C(=O)N(C)c2cccnc21 ; strain: IIIB ; result: <0.05 µM
CCCc1cc(=O)oc2c3c(c4c(c12)OC(C)(C)C=C4)O[C@H](C)C[C@@H]3O ; changes: RT-Y188H ; result: 34.2 µM
CCN1c2ncc(/C=C\c3cn[nH]c3)cc2C(=O)Nc2c(C)ccnc21 ; strain: WT ; result: <1 µM
N#Cc1cc(Cl)cc(Oc2ccc(CC(=O)Nc3ccc(S(N)(=O)=O)cc3)cc2Cl)c1 ; result: 10 µM
CCN1c2ncc(CCc3ccc(N(C)S(C)(=O)=O)cc3)cc2C(=O)N(C)c2ccc(Cl)nc21 ; changes: RT-Y181C ; result: <1 µM
NS(=O)(=O)c1ccc(NC(=O)Cc2ccc(Oc3cc(Cl)ccc3Br)c(Cl)c2)cc1 ; result: 100 µM
CCN1c2ncc(CCOc3cccc4c3ccc[n+]4[O-])cc2C(=O)Nc2c(C)cc(Cl)nc21 ; changes: RT-K103N P225H ; result: 0.016 µM
CCN1c2ncc(CCOc3ccc(C(=O)O)cc3C)cc2-c2ncc(C)n2-c2cccnc21 ; result: <0.05 µM
COc1cccc(F)c1C1SCC(=O)N1c1nccc(C)n1 ; result: 9.7 µM
Cc1cc(C)cc(S(=O)(=O)c2c(C(N)=O)[nH]c3ccc(Cl)cc23)c1 ; changes: RT-V106A ; result: 0.09 µM
CCN1c2ncc(CCOc3cccc4c3CNC(=O)O4)cc2C(=O)N(C)c2cccnc21 ; strain: IIIB ; changes: RT-K103N Y181C ; result: <0.05 µM
CCN1c2ncc(CCOc3ccc(-c4ccc(C(=O)O)cc4)cc3F)cc2C(=O)N(C)c2cccnc21 ; strain: IIIB ; changes: RT-K103N Y181C ; result: >0.1 µM
Cc1cc(S(N)(=O)=O)ccc1NC(=O)COc1ccccc1C(=O)c1cc(Cl)cc(C#N)c1 ; strain: NNRTI-resistant ; changes: RT-Y181C ; result: 0.0059 µM
CCN1c2ncc(CCOc3ccc(CC(C)C(=O)O)c4ccccc34)cc2C(=O)Nc2c(C)ccnc21 ; changes: RT-K103N Y181C ; result: >1 µM
CCN1c2ncc(CCOc3ccc(-c4ccc(CC(=O)O)cc4Cl)cc3C)cc2C(=O)N(C)c2cccnc21 ; strain: IIIB ; result: <0.05 µM
CCN1c2ncc(CCOc3cccc4c3CNS4(=O)=O)cc2-c2ncc(C)n2-c2cccnc21 ; result: <0.05 µM
COC(=O)COc1ccc(NC(=O)Cc2ccc(Oc3cc(C#N)cc(C#N)c3)c(Cl)c2)cc1 ; result: 100 µM
CCN1c2ncc(CCOc3ccc(/C=C(\C)C(=O)O)c4ccccc34)cc2C(=O)N(C)c2ccc(C)nc21 ; changes: RT-V106A ; result: >1 µM
CCN1c2ncc(CCOc3ccc(C(=O)O)c4c3CCCC4)cc2-c2ncc(C)n2-c2cccnc21 ; result: <0.05 µM
COc1ccccc1NC(=O)Cc1ccc(Oc2cc(C#N)cc(C#N)c2)c(Cl)c1 ; result: 10 µM
CCN1c2ncc(CCOc3ccc4c(c3)C(C)(C)NS4(=O)=O)cc2-c2nccn2-c2c(C)ccnc21 ; changes: RT-K103N Y181C ; result: <0.05 µM
CCN1c2ncc(CCOc3ccc(CC(=O)O)c4c3CCCC4)cc2C(=O)N(C)c2cccnc21 ; changes: RT-Y188L ; result: >1 µM
Cc1occc1C(=S)Nc1ccc(Cl)c(C(=O)OCC2CC2)c1 ; changes: RT-Y181C ; result: >50 µM
CCN1c2ncc(CCc3cccc4[nH]ccc34)cc2C(=O)N(C)c2cccnc21 ; changes: RT-Y181C ; result: <1 µM
CCN1c2ncc(CCOc3ccc4[nH]c(=O)[nH]c4c3)cc2C(=O)N(C)c2cccnc21 ; strain: IIIB ; result: 0.05–0.1 µM
Cc1occc1C(=S)Nc1ccc(Cl)c(/C=N/OC(C)(C)C)c1 ; changes: RT-Y181C ; result: 37 µM
Nc1ncnc2c1ncn2[C@H]1CC[C@@H](COP(=O)(O)OP(=O)(O)OP(=O)(O)O)O1 ; changes: RT-F77L ; result: 4.5 µM
CCN1c2ncc(CCOc3ccc(-c4csc(C(=O)O)c4)cc3C)cc2C(=O)N(C)c2cccnc21 ; strain: IIIB ; result: <0.05 µM
CCN1c2ncc(CCOc3cccc4c3CCNC4=O)cc2C(=O)N(C)c2cccnc21 ; strain: IIIB ; result: <0.05 µM
C=CCO/N=C/c1cc(NC(=S)c2ccoc2C)ccc1Cl ; changes: RT-L100I ; result: >50 µM
CCN1c2ncc(CCOc3cccc4c3CC(=O)N4)cc2C(=O)N(C)c2cccnc21 ; strain: IIIB ; changes: RT-K103N Y181C ; result: >0.1 µM
CCN1c2ncc(CCOc3ccc(S(=O)(=O)Nc4ccc(C(=O)O)cc4)cc3C)cc2C(=O)N(C)c2cccnc21 ; strain: IIIB ; changes: RT-K103N Y181C ; result: <0.05 µM
CCN1c2ncc(CCOc3cccc4c3CNC4=O)cc2-c2ncc(C)n2-c2cccnc21 ; result: <0.05 µM
CCN1c2ncc(CCOc3ccc(C(=O)NCC(CC)(CC)C(=O)O)cc3C)cc2C(=O)N(C)c2cccnc21 ; strain: IIIB ; result: <0.05 µM
CCN1c2ncc(CCc3ccnc(C(N)=O)c3)cc2C(=O)N(C)c2ccc(Cl)nc21 ; strain: WT ; result: <1 µM
CCN1c2ncc(CCOc3ccc(C(=O)O)c4c3CCN(S(=O)(=O)N(C)C)C4)cc2C(=O)N(C)c2cccnc21 ; strain: WT ; result: <0.1 µM
CCN1c2ncc(CCc3cccc4[nH]ccc34)cc2C(=O)N(C)c2ccc(Cl)nc21 ; strain: WT ; result: <1 µM
CCN1c2ncc(CCOc3cccc4c3C(C)C(=O)N4C)cc2C(=O)N(C)c2cccnc21 ; strain: IIIB ; result: 0.05–0.1 µM
CCN1c2ncc(CCOc3ccc(-c4cscn4)cc3)cc2C(=O)N(C)c2cccnc21 ; strain: IIIB ; result: <0.05 µM
CCN1c2ncc(CCOc3cccc4c3CNC4=O)cc2C(=O)Nc2c(C)ccnc21 ; strain: IIIB ; result: <0.05 µM
Cc1cc(CC(=O)Nc2ccc(S(N)(=O)=O)cc2)ccc1Oc1cc(C#N)cc(C#N)c1 ; result: 10 µM
CCN1c2ncc(CCOc3cccc4c3CCS(=O)(=O)N4)cc2-c2ncc(C)n2-c2cccnc21 ; changes: RT-K103N Y181C ; result: 0.05–0.1 µM